{
  "source": "patent US6334944B1",
  "about": "“Process for producing an amino acid-N,N-diacetic acid and its salts” (Showa Denko K.K., priority 1998, dated 2002)",
  "system": "activated sludge",
  "assay": "Biodegradability test in compact aeration type activated sludger",
  "conditions": "sample diluted to COD 500 ppm, activated sludge seed, 7 days",
  "data": [
    {"smiles": "O=C([O-])CCC(C(=O)[O-])N(CC(=O)[O-])CC(=O)[O-].[Fe+3].[NH4+]", "note": "(stereo not shown) [Example 21, ammonium ferric salt of glutamic acid-N,N-diacetic acid]", "values": [
      {"measurement": "Decomposition Rate (%)", "result": 79, "unit": "%"}
    ]}
  ]
}
